Values of other authors in patent US7595003B2, “On-board water treatment and management process and apparatus” (priority 2004, dated 2009).

Test system: Cryptosporidium oocysts
Conditions: cited from earlier work

For chlorine, the “contact time required to achieve the same level of disinfection” value (80 μg/L chlorine dosage, oocysts not shaken with sand) is listed as “over 90 minutes” and the vitality of oocysts (oocysts shaken with sand, then exposed to chlorine for 5 minutes) is listed as “significant decrease of vitality”.
